Laboratory results taken from article PMC10216065.

Tested on: N[C@@H](CS)C(=O)O
Test: purified protein
Conditions: pH 8.0; 37.0 °C

Mtb SufS (Rv1464) with Zn-SufU (Rv1465) (Mycobacterium tuberculosis H37Rv)
Km: 103 µM
Vmax: 1.25 µmol/min/mg
kcat/Km: 9100 M⁻¹ s⁻¹
